Source: ChEMBL document CHEMBL4715914, “Chemical validation of a druggable site on Hsp27/HSPB1 using in silico solvent mapping and biophysical methods” (Bioorg Med Chem, 2021)
The source made the active and inactive calls. The rule behind the calls is not given here.

Sequences of proteins named here, by UniProt entry; tags and fusion partners are left off.
UniProt P04792, whole entry, looked up: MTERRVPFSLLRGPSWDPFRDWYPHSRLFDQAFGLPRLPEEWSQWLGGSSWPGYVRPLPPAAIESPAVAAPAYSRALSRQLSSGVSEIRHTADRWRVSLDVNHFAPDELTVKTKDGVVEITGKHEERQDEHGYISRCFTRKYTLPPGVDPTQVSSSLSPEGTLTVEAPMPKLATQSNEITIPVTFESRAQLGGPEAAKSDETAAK

Target: Heat shock protein beta-1 (Homo sapiens, UniProt P04792)
Test: Binding affinity to HSP27 (79 to 176 residues) (unknown origin) expressed in Escherichia coli BL21 (DE3) cells by HSQC NMR analysis

| SMILES | Kd(app) |
| --- | --- |
| O=[N+]([O-])c1ccc(Oc2ccc(Oc3ccc([N+](=O)[O-])cc3[N+](=O)[O-])cc2)c([N+](=O)[O-])c1 | inactive |
| O=[N+]([O-])c1ccc(Oc2ccc(Oc3ccc([N+](=O)[O-])cc3[N+](=O)[O-])c(F)c2)c([N+](=O)[O-])c1 | inactive |
